Some results come without the dose or concentration used.
Tested on: THP1 cells
Type: cell-based, human
Details: 24 hours, relative to vehicle

SMILES | Common upregulated genes following treatment with CA-4948 and PF-06650833
Cc1cc(-c2nc(C(=O)Nc3cc4oc(N5CCOCC5)nc4nc3N3CC[C@@H](O)C3)co2)ccn1 [CA-4948, emavusertib] | 91
CC[C@@H]1[C@H](F)C(=O)N[C@@H]1COc1nccc2cc(C(N)=O)c(OC)cc12 [PF-06650833, Zimlovisertib] | 91
